Test results published in US10233179B2, “Thiazoles and uses thereof” (AbbVie Inc., priority 2013, dated 2019).

Tested on: RSV (Group A, Long Strain)
Experiment: Antiviral cytopathic effect (CPE) protection assay, MTT readout
Format: cell-based, human respiratory syncytial virus (RSV)
Design: key: NW: No window
Conditions: ratio of MTT TD50 to RSV EC50; NW = no window
Description: HEp-2 cells and RSV (Group A, Long Strain) were obtained from the American Type Culture Collection (Manassas, Va.).
A cytopathic effect (CPE) protection assay was performed to determine the ability of a compound to protect the cells from viral infection and thus the CPE induced by viral infection. 96-Well plates were first seeded with 3×10^3 HEp-2 cells per well in Dulbecco's modified Eagle's medium (DMEM) containing 10% fetal bovine serum (FBS). One day after the cells were seeded, they were preincubated with serial dilutions of compounds prepared in 100 μL assay medium (DMEM mixed with F12 medium at a 1:1 ratio, supplemented with 2% FBS and 1 mM sodium pyruvate) for 1 hour at 37° C. 100 μL of assay medium containing 0.2 multiplicity of infection (MOI) of RSV was then added to each well of cells. In addition to wells containing infected cells incubated with compounds, each plate also contained replicates of two kinds of controls: (1) Virus control contained cells infected with 0.2 MOI of RSV in assay medium, (2) Uninfected cell control contained cells incubated with assay medium only. After 4 days of incubation at 37° C., the viability of cells was assessed using MTT (Thiazolyl blue tetrazolium bromide, Sigma). A stock solution of MTT, at a concentration of 4 mg/mL in phosphate-buffered saline, was added to all wells at 25 μL per well. Plates were further incubated for 4 hours, and each well was then treated with 50 μL of a solution containing 20% sodium dodecyl sulfate (SDS) and 0.02 N HCl. After an overnight incubation, the plates were measured on a BioTek® microtiter plate reader at wavelengths of 570 nm and 650 nm. The MTT detection is based on the fact that viable (uninfected) cells can reduce the tetrazolium salts into colored formazan products, which can then be quantitated by spectrometry. Based on the spectrometric absorbance of each sample, the percent of protection from CPE, which is an indicator of protection from viral infection, can be calculated for each compound and the 50% effective concentrations (EC50) can be calculated using a nonlinear regression curve fitting equation provided by the GraphPad Prism® 4 software.
Compounds were tested to determine both their antiviral and toxicity to determine their therapeutic window. Determination of the EC50 and TD50 of these active compounds were repeated one additional time to confirm the window.

Structure (SMILES) | Window (TD50/EC50)
c1cc(CN(Cc2cccn2-c2nccs2)CC2C[C@H]3CC[C@@H]2C3)n(-c2nccs2)c1 (stereo partly drawn) [Example 32, 1-[(1R,4S)-bicyclo[2.2.1]hept-2-yl]-N,N-bis{[1-(1,3-thiazol-2-yl)-1H-pyrrol-2-yl]methyl}methanamine] | 10
c1cc(CN(Cc2cccn2-c2nccs2)CC2CCCO2)n(-c2nccs2)c1 (centres unmarked) [Example 33, 1-(tetrahydrofuran-2-yl)-N,N-bis{[1-(1,3-thiazol-2-yl)-1H-pyrrol-2-yl]methyl}methanamine] | 3
FC(F)(F)c1ccc(CN(Cc2cccn2-c2nccs2)Cc2cccn2-c2nccs2)cc1 [Example 34, 1-[1-(1,3-thiazol-2-yl)-1H-pyrrol-2-yl]-N-{[1-(1,3-thiazol-2-yl)-1H-pyrrol-2-yl]methyl}-N-[4-(trifluoromethyl)benzyl]methanamine] | 10
Cc1cc(N(Cc2cccn2-c2nccs2)Cc2cccn2-c2nccs2)n(-c2ccccc2)n1 [Example 35, 3-methyl-1-phenyl-N,N-bis{[1-(1,3-thiazol-2-yl)-1H-pyrrol-2-yl]methyl}-1H-pyrazol-5-amine] | >677
Clc1cccc(Cl)c1CN(Cc1cccn1-c1nccs1)Cc1cccn1-c1nccs1 [Example 36, 1-(2,6-dichlorophenyl)-N,N-bis{[1-(1,3-thiazol-2-yl)-1H-pyrrol-2-yl]methyl}methanamine] | 719
Cc1ccccc1CN(Cc1cccn1-c1nccs1)Cc1cccn1-c1nccs1 [Example 37, 1-(2-methylphenyl)-N,N-bis{[1-(1,3-thiazol-2-yl)-1H-pyrrol-2-yl]methyl}methanamine] | 213
Clc1cnc(CN(Cc2cccn2-c2nccs2)Cc2cccn2-c2nccs2)c(Cl)c1 [Example 38, 1-(3,5-dichloropyridin-2-yl)-N,N-bis{[1-(1,3-thiazol-2-yl)-1H-pyrrol-2-yl]methyl}methanamine] | 35
CC(C)CN(Cc1cccn1-c1nccs1)Cc1cccn1-c1nccs1 [Example 39, 2-methyl-N,N-bis{[1-(1,3-thiazol-2-yl)-1H-pyrrol-2-yl]methyl}propan-1-amine] | 2
Fc1ccccc1CN(Cc1cccn1-c1nccs1)Cc1cccn1-c1nccs1 [Example 40, 1-(2-fluorophenyl)-N,N-bis{[1-(1,3-thiazol-2-yl)-1H-pyrrol-2-yl]methyl}methanamine] | 353
Cc1c(C(C)N(Cc2cccn2-c2nccs2)Cc2ncc(-c3ccccc3)n2C)cnn1-c1cccc(F)c1 (centres unmarked) [Example 41, 1-[1-(3-fluorophenyl)-5-methyl-1H-pyrazol-4-yl]-N-[(1-methyl-5-phenyl-1H-imidazol-2-yl)methyl]-N-{[1-(1,3-thiazol-2-yl)-1H-pyrrol-2-yl]methyl}ethanamine] | NW
Clc1ccc(CN(Cc2cccn2-c2nncs2)Cc2cccn2-c2nncs2)c(Cl)c1 [Example 42, 1-(2,4-dichlorophenyl)-N,N-bis{[1-(1,3,4-thiadiazol-2-yl)-1H-pyrrol-2-yl]methyl}methanamine] | NW
Cc1cc(N(Cc2cccn2-c2nncs2)Cc2cccn2-c2nncs2)n(-c2ccc(F)cc2)n1 [Example 43, 1-(4-fluorophenyl)-3-methyl-N,N-bis{[1-(1,3,4-thiadiazol-2-yl)-1H-pyrrol-2-yl]methyl}-1H-pyrazol-5-amine] | NW
FC(F)(F)c1cccc(CN(Cc2cccn2-c2nccs2)Cc2cccn2-c2nccs2)c1 [Example 44, 1-[1-(1,3-thiazol-2-yl)-1H-pyrrol-2-yl]-N-{[1-(1,3-thiazol-2-yl)-1H-pyrrol-2-yl]methyl}-N-[3-(trifluoromethyl)benzyl]methanamine] | 327
N#Cc1ccc(CN(Cc2cccn2-c2nccs2)Cc2cccn2-c2nccs2)cc1 [Example 45, 4-[(bis{[1-(1,3-thiazol-2-yl)-1H-pyrrol-2-yl]methyl}amino)methyl]benzonitrile] | >33
CC(c1ccc(Cl)c(Cl)c1)N(Cc1cccn1-c1nccs1)Cc1cccn1-c1nccs1 (centres unmarked) [Example 46, 1-(3,4-dichlorophenyl)-N,N-bis{[1-(1,3-thiazol-2-yl)-1H-pyrrol-2-yl]methyl}ethanamine] | >58
Clc1ccccc1CN(Cc1cccn1-c1nccs1)Cc1cccn1-c1nccs1 [Example 47, 1-(2-chlorophenyl)-N,N-bis{[1-(1,3-thiazol-2-yl)-1H-pyrrol-2-yl]methyl}methanamine] | 472

Structure (SMILES) | Window (TD50/EC50)
C[C@H](c1ccccc1Cl)N(Cc1cccn1-c1nccs1)Cc1cccn1-c1nccs1 [Example 48, (1R)-1-(2-chlorophenyl)-N,N-bis{[1-(1,3-thiazol-2-yl)-1H-pyrrol-2-yl]methyl}ethanamine] | 63
C[C@@H](c1ccccc1Cl)N(Cc1cccn1-c1nccs1)Cc1cccn1-c1nccs1 [Example 49, (1S)-1-(2-chlorophenyl)-N,N-bis{[1-(1,3-thiazol-2-yl)-1H-pyrrol-2-yl]methyl}ethanamine] | 97
c1cnnc(N(Cc2cccn2-c2nccs2)Cc2cccn2-c2nccs2)c1 [Example 50, N,N-bis{[1-(1,3-thiazol-2-yl)-1H-pyrrol-2-yl]methyl}pyridazin-3-amine] | NW
c1ccc(C2(CCN(Cc3cccn3-c3nccs3)Cc3cccn3-c3nccs3)CC2)nc1 [Example 51, 2-[1-(pyridin-2-yl)cyclopropyl]-N,N-bis{[1-(1,3-thiazol-2-yl)-1H-pyrrol-2-yl]methyl}ethanamine] | 137
c1cc(CN(Cc2cccn2-c2nccs2)C2CCCCC2)n(-c2nccs2)c1 [Example 52, N,N-bis{[1-(1,3-thiazol-2-yl)-1H-pyrrol-2-yl]methyl}cyclohexanamine] | 72
c1ccc(N(Cc2cccn2-c2nccs2)Cc2cccn2-c2nccs2)cc1 [Example 53, N,N-bis{[1-(1,3-thiazol-2-yl)-1H-pyrrol-2-yl]methyl}aniline] | >12
FC(F)(F)c1ccc(CN(Cc2cccn2-c2nncs2)Cc2cccn2-c2nncs2)cc1 [Example 54, 1-[1-(1,3,4-thiadiazol-2-yl)-1H-pyrrol-2-yl]-N-{[1-(1,3,4-thiadiazol-2-yl)-1H-pyrrol-2-yl]methyl}-N-[4-(trifluoromethyl)benzyl]methanamine] | NW
Clc1cccc(Cl)c1CN(Cc1cccn1-c1nncs1)Cc1cccn1-c1nncs1 [Example 55, 1-(2,6-dichlorophenyl)-N,N-bis{[1-(1,3,4-thiadiazol-2-yl)-1H-pyrrol-2-yl]methyl}methanamine] | NW
N#Cc1ccc(CN(Cc2cccn2-c2nncs2)Cc2cccn2-c2nncs2)cc1 [Example 56, 4-[(bis{[1-(1,3,4-thiadiazol-2-yl)-1H-pyrrol-2-yl]methyl}amino)methyl]benzonitrile] | >2.2
FC1(F)CCC(CN(Cc2cccn2-c2nccs2)Cc2cccn2-c2nccs2)CC1 [Example 57, 1-(4,4-difluorocyclohexyl)-N,N-bis{[1-(1,3-thiazol-2-yl)-1H-pyrrol-2-yl]methyl}methanamine] | 64
FC(F)(F)Cn1cc(CN(Cc2cccn2-c2nccs2)Cc2cccn2-c2nccs2)cn1 [Example 58, 1-[1-(1,3-thiazol-2-yl)-1H-pyrrol-2-yl]-N-{[1-(1,3-thiazol-2-yl)-1H-pyrrol-2-yl]methyl}-N-{[1-(2,2,2-trifluoroethyl)-1H-pyrazol-4-yl]methyl}methanamine] | 94
FC(F)n1ccnc1CN(Cc1cccn1-c1nccs1)Cc1cccn1-c1nccs1 [Example 59, 1-[1-(difluoromethyl)-1H-imidazol-2-yl]-N,N-bis{[1-(1,3-thiazol-2-yl)-1H-pyrrol-2-yl]methyl}methanamine] | 9
c1cncc(C2(CCN(Cc3cccn3-c3nccs3)Cc3cccn3-c3nccs3)CC2)c1 [Example 60, 2-[1-(pyridin-3-yl)cyclopropyl]-N,N-bis{[1-(1,3-thiazol-2-yl)-1H-pyrrol-2-yl]methyl}ethanamine] | >117
c1cc(CN(Cc2cccn2-c2nncs2)C[C@H]2CCOC2)n(-c2nncs2)c1 [Example 61, 1-[(3R)-tetrahydrofuran-3-yl]-N,N-bis{[1-(1,3,4-thiadiazol-2-yl)-1H-pyrrol-2-yl]methyl}methanamine] | NW
C[C@H](c1ccc(F)cc1)N(Cc1cccn1-c1nccs1)Cc1cccn1-c1nccs1 [Example 62, (1R)-1-(4-fluorophenyl)-N,N-bis{[1-(1,3-thiazol-2-yl)-1H-pyrrol-2-yl]methyl}ethanamine] | NW
c1coc(CN(Cc2cccn2-c2nccs2)Cc2cccn2-c2nccs2)c1 [Example 63, 1-(furan-2-yl)-N,N-bis{[1-(1,3-thiazol-2-yl)-1H-pyrrol-2-yl]methyl}methanamine] | 77
